# Experimental data: PubChem BioAssay AID1224833 (University of Georgia, 2016)
# Screen: 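Host factors restraining rotavirus as candidate antiviral genes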 (primary screen)
# Cells: monkey MA104 kidney cells
# Reagents: siRNA pool against human genes, 50 nM
# Time to read-out: 48 h knock-down before infection; read 24 h after infection
# Conditions: infection with rotavirus strain RV3 two days after transfection; infectious dose for this stage not given
# Read-out: 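z-score of rotavirus antigen signal per well, from a fluorescent immunoassay, relative to non-targeting control wells on the same plate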
# Scale: z-score vs non-targeting control: higher = more rotavirus replication than with non-targeting control
# Rule for the call: In these data the active calls have z-score vs non-targeting control at about -1 or lower, or at about 1 or higher
# Calls: active = z-score beyond 1 either way; inactive = z-score within 1 of zero
# Here is an unselected part of about 12,000 deposited reagents. About 5,600 of all reagents (46%) count as active. 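Active calls cover z-scores past 1 in both directions, so they include lowered as well as raised rotavirus replication.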 A number with no mark means an inactive call. The numbers tell different reagents against one gene apart.
z-score vs non-targeting control,target gene,reagent
2.71 (active),BACC1,1
-0.737,HPS4,1
0.607,RPAP2,1
0.972,IKZF1,1
-1.36 (active),ATP2A1,1
-1.39 (active),LIG4,1
-0.601,TSBP1,1
-1.53 (active),RHCG,1
-0.303,RASSF5,1
-0.913,CPD,1
0.5,PIGP,1
-1.23 (active),ISM2,1
-0.607,REEP1,1
1.14 (active),ENTHD1,1
1.02 (active),PREX2,1
1.3 (active),SNAP91,1
-1.78 (active),CSE1L,1
-0.918,DNAH1,1
0.575,TIAM2,1
-1.27 (active),SRD5A3,1
-0.908,TMEM196,1
-2.14 (active),SYT3,1
0.787,DNAJC17,1
-0.609,LRP10,1
-0.19,YTHDC2,1
0.815,P4HA2,1
1.45 (active),TNFRSF1A,1
-0.331,SULT2B1,1
0.897,ADAMTS8,1
-0.125,SNRPF,1
0.613,TPRN,1
-0.335,HSPB9,1
-0.829,TMSB15A,1
0.0284,TSPAN8,1
1.46 (active),SKAP2,1
-1.07 (active),OR10H5,1
-2.55 (active),TYR,1
-0.184,GTF2H5,1
-0.807,LCLAT1,1
-0.592,FAM24B,1
-0.847,GALE,1
0.534,COX4I2,1
1.54 (active),TBC1D23,1
-1.41 (active),SMOC2,1
0.611,NEBL,1
-1.58 (active),NEBL,2
0.721,FOXF2,1
-1.63 (active),ZFHX3,1
-0.221,DEFA5,1
-1.64 (active),DHRS7B,1
-0.979,BAIAP2L1,1
-0.452,IQSEC2,1
1.86 (active),MACIR,1
-0.814,CBX6,1
-1.72 (active),PRAF2,1
0.521,ZNF324,1
0.657,NKX3-1,1
0.503,IMP4,1
0.727,WWC2,1
-0.0898,OR5AR1,1
-2.25 (active),ZNF214,1
-0.785,MTMR10,1
0.463,ARFGEF2,1
-0.844,MDH1,1
-1.32 (active),LDB3,1
-0.721,SOS2,1
-1.47 (active),ZNF354C,1
-0.565,SPTBN2,1
-1.49 (active),ESS2,1
0.614,VPS9D1,1
-0.29,C4B,1
-1.14 (active),RXRB,1
0.831,SPP2,1
-0.426,SYDE1,1
0.0392,CREB3L3,1
-2.04 (active),RAB3A,1
-1.1 (active),PANX3,1
0.336,OR10H1,1
3.39 (active),IQCN,1
-0.298,NXPH3,1
-2.18 (active),FSD2,1
-1.08 (active),SLC33A1,1
0.14,TAF8,1
-2.64 (active),ATP6V0D1,1
-0.474,MAGEB6,1
-0.81,SLC6A16,1
-0.121,PSMF1,1
-2.81 (active),NAPA,1
0.911,FOSL2,1
-0.748,FCN1,1
-0.505,RBMXL2,1
1.31 (active),LMBRD1,1
-0.622,TMOD4,1
-2.06 (active),KLF12,1
0.616,MAN2B1,1
-2.17 (active),MLN,1
1.85 (active),GSTK1,1
0.973,C4orf46,1
-1.69 (active),CIDEA,1
0.306,VEZT,1
-2.54 (active),OR51L1,1
-1.21 (active),SRBD1,1
-0.473,STOM,1
-1.07 (active),FABP4,1
-1.14 (active),ZC3H13,1
-0.876,WNT5B,1
-1.25 (active),SULT2A1,1
1.43 (active),KNL1,1
0.59,CCDC86,1
-0.69,RAP1GDS1,1
-0.705,CLEC4D,1
0.828,HNRNPA3,1
0.855,NPY,1
1.4 (active),BST1,1
-0.722,ARHGAP21,1
-1.2 (active),SEMA3D,1
-0.641,TNFRSF8,1
-2.05 (active),E2F6,1
0.195,FASTKD2,1
2.16 (active),TMED4,1
-1.54 (active),CHMP3,1
0.76,DNAI4,1
1.2 (active),TMEM132D,1
0.649,SUSD4,1
-2.08 (active),FAM47E,1
1.06 (active),TRHDE,1
0.827,IDS,1
-0.587,SPRING1,1
0.957,MAP3K7CL,1
-2.14 (active),PCDH11X,1
1.44 (active),CFHR2,1
1.51 (active),TTLL6,1
0.0444,ZNF350,1
2.01 (active),SPMAP2,1
0.979,SLC25A40,1
0.125,JRK,1
-1.35 (active),NKTR,1
-1.27 (active),WIPF1,1
1.54 (active),OR4K14,1
-1.4 (active),GANC,1

Ordered by “z-score vs non-targeting control” (lowest first): some entries from above
z-score vs non-targeting control,target gene,reagent
-2.55 (active),TYR,1
-1.63 (active),ZFHX3,1
-1.58 (active),NEBL,2
-1.41 (active),SMOC2,1
-1.07 (active),OR10H5,1
-0.847,GALE,1
-0.807,LCLAT1,1
-0.592,FAM24B,1
-0.221,DEFA5,1
-0.184,GTF2H5,1
0.534,COX4I2,1
0.611,NEBL,1
0.721,FOXF2,1
1.46 (active),SKAP2,1
1.54 (active),TBC1D23,1
